SMILES strings stand for the structures.

The series deals with HIV-1. Put plainly: HIV-1 syncytial plaque assay in CEM-SS cells. It counts as cell-based. Conditions: DS = ratio of TC50 for cytotoxicity to EC50 for anti-HIV activity. As for the experimental part:
The inhibitory effects of PC lipids, non-PC lipid-AZT conjugates, and double-targeting PC lipid-AZT conjugate compounds of the invention on replication of HIV-1 virus in cells was examined using the plaque assay procedure described in Kucera et al. (1990, AIDS Research and Human Retroviruses, 6:491). CEM-SS cells were seeded at 50,000 cells per milliliter in RPMI growth medium as a monolayer in 96-well dishes, inoculated with 50 to 100 plaque forming units of HIV-1 and overlaid with serial dilutions of either PC lipid, non-PC lipid-AZT conjugate, or PC-lipid-AZT conjugate in RPMI-1640 growth medium supplemented with 10% fetal bovine serum. The structures of the tested compounds are described in Table 1. AZT and PC lipids were used as positive controls. […] The cytotoxicity of PC lipids, non-PC lipid-AZT conjugates and double targeting PC lipid-AZT conjugates was assessed using the procedure described in Kucera et al. (1990, AIDS Res. And Human Retrovir., 6:496, and 1998, Antiviral Chemistry and Chemotherapy, 9:160). [drawing 16]
In the plaque assay, HIV-1 syncytial plaques are seen as large, multicellular foci (10 to 25 nuclei/syncytium) that appear either brown and granular or clear. Because the number of HIV-1 syncytial plaques was correlated with reverse transcriptase (RT) and p24 core antigen activity in the HIV-1 infected cell overlay fluids, the syncytial plaque assay could be used to quantify the amount of infectious virus. Reverse transcriptase activity was assayed according to the procedure described by Poeisz et al. (1980, Proc. Natl. Acad. Sci. U.S.A. 77:7415). The activity of p24 core antigen induced by HIV-1 infection of CEM-SS cells was measured spectrophotometrically using the commercial Coulter enzyme immunoassay (EIA).
Consider `CCCCCCCCCCCCSCC(COP(=O)(O)OCC1OC(n2cc(C)c(=O)[nH]c2=O)CC1N=[N+]=[N-])OCCCCCCCCCC` (centres unmarked) [BM21-1290], for which the “Differential Selectivity” value is on record as 1925.

For `CCCCCCCCCCCCSCC(COP(=O)([O-])OCC[N+](C)(C)C)OCCCCCCCCOCc1ccccc1` (centres unmarked) [INK-17, 3-dodecylthio-2-(8′-benzyloxyoctyloxy)propyl phosphocholine], the “Differential Selectivity” value was determined as 327.

`CCCCCCCCCCCCSCC(COP(=O)([O-])OCC[N+](C)(C)C)OCCCCCCCCO` (centres unmarked) [INK-18, 3-dodeceylthio-2-(8′-hydroxyoctyloxy)propyl phosphophocholine]: the “Differential Selectivity” value came out at 26.

As for `CCCCCCCCCCCCSCC(COC(=O)CC(=O)OC[C@H]1O[C@@H](n2cc(C)c(=O)[nH]c2=O)C[C@@H]1N=[N+]=[N-])OC` (some centres unmarked) [INK-19], the “Differential Selectivity” value stood at 1050.

As to `CCCCCCCCCCCCSCC(COP(=O)([O-])OCC[N+](C)(C)C)OCCCCCCCCC(=O)OCC(=O)OC[C@H]1O[C@@H](n2cc(C)c(=O)[nH]c2=O)C[C@@H]1N=[N+]=[N-]` (some centres unmarked) [INK-20], the “Differential Selectivity” value is given as 7,666.

With `CCCCCCCCCCCCSCC(COP(=O)([O-])OCC[N+](C)(C)C)OCCCCCCCCCCOCc1ccccc1` (centres unmarked) [INK-21], the “Differential Selectivity” value stood at 38.

As to `CCCCCCCCCCCCSCC(COP(=O)([O-])OCC[N+](C)(C)C)OCCCCCCCCCCO` (centres unmarked) [INK-22], the “Differential Selectivity” value was above 232.

With `CCCCCCCCCCCCSCC(COP(=O)([O-])OCC[N+](C)(C)C)OCCCCCCCCCCCCOCc1ccccc1` (centres unmarked) [INK-23], the “Differential Selectivity” value is given as above 68.

Turning to `CCCCCCCCCCCCSCC(COP(=O)([O-])OCC[N+](C)(C)C)OCCCCCCCCCCCCO` (centres unmarked) [INK-24], the “Differential Selectivity” value was 207.

As for `CCCCCCCCCCCCSCC(COP(=O)([O-])OCC[N+](C)(C)C)OCCCCCCCCCCOC(=O)CC(=O)OC[C@H]1O[C@@H](n2cc(C)c(=O)[nH]c2=O)C[C@@H]1N=[N+]=[N-]` (some centres unmarked) [INK-25], the “Differential Selectivity” value worked out at 682.

As to `CCCCCCCCCCCCSCC(COP(=O)([O-])OCC[N+](C)(C)C)OCCCCCCCCCCCCOC(=O)CC(=O)OC[C@H]1O[C@@H](n2cc(C)c(=O)[nH]c2=O)C[C@@H]1N=[N+]=[N-]` (some centres unmarked) [INK-26], the “Differential Selectivity” value was determined as 580.
